Pooled drug test results. Numbers come from NIAID ChemDB, via PubChem.

All rows: growth or infection tests; organism: HIV-1

Lines come from different laboratories, so protocols vary.

SMILES,read by,cell line,endpoint,changes,conditions,strain,value
CC(C)=CCN1Cc2cccc3[nH]c(=S)n(c23)C[C@@H]1C,cytopathic effect / MTT,MT-4,EC50,RT-L100I,,TIBO-resistant L100I (RT-L100I),47.2 µM
O=S(=O)(c1ccccc1)c1ccccc1,XTT,CEM + CEM-SS,EC50,RT-L100I T139I,,Costatolide-resistant (RT L100I T139I),85 µM
CCC(=O)c1ccc(F)c([C@@H]2C[C@@H]2NC(=O)Nc2ccc(C#N)cn2)c1O,absorbance,PBMC,EC50,,,1617-1,0.0039 µM
CN=C1CN=C(c2ccc[nH]2)c2cc(Cl)ccc2N1,p24,Macrophage,EC50,,,Ba-L-85,0.7–2 µM
CC[C@H](C)[C@H]1NC(=O)[C@@H](NC(=O)[C@@H](C)N(C)C(=O)[C@@H]2CCCN2C(=O)C(C)=O)[C@@H](C)OC(=O)[C@H](Cc2ccc(OC)cc2)N(C)C(=O)[C@@H]2CCCN2C(=O)[C@H](CC(C)C)NC(=O)[C@@H](C)C(=O)[C@H](C(C)C)OC(=O)C[C@@H]1O,luciferase,MT-2,EC50,,,NL4-3,0.3 µM
Cc1cn([C@H]2C[C@H](N=[N+]=[N-])[C@@H](CO)O2)c(=O)[nH]c1=O,cytopathic effect / XTT,CEM + CEM-SS,EC50,,,TP1,0.0008 µM
CC[C@H](C)[C@H]1NC(=O)[C@@H](NC(=O)[C@@H](CC(C)C)N(C)C(=O)c2cc3ccccc3s2)[C@@H](C)OC(=O)[C@H](Cc2ccc(OC)cc2)N(C)C(=O)[C@@H]2CCCN2C(=O)[C@H](CC(C)C)NC(=O)[C@H](C(C)C)OC(=O)C[C@@H]1O,luciferase,MT-2,EC50,Delta-env-VSV-Luc,,NL4-3,0.038 µM
Cc1ccnc2c1NC(=O)c1cccnc1N2C1CC1,RT activity,PBMC,EC50,,,CLADE E,0.007 µM
O=c1[nH]cnc2c1ncn2[C@H]1CC[C@@H](CO)O1,p24,MT-4,EC50,RT-M184V,,IIIB 3TC (RT-M184V),76 µM
CCCc1cc(=O)oc2c3c(c4c(c12)OC(C)(C)C=C4)O[C@H](C)[C@@H](C)[C@@H]3O,XTT,CEM + CEM-SS,EC50,RT-T139I,,NL4-3,1.7 µM
Cc1cc(C#N)cc(C)c1Oc1nc(Nc2ccc(C#N)cc2)nc(N)c1Br,absorbance,PBMC,EC50,,,7324-1,0.001 µM
Cc1ccc(C(=O)Nc2ccc(S(=O)(=O)O)c3cc(S(=O)(=O)O)cc(S(=O)(=O)O)c23)cc1NC(=O)c1cccc(NC(=O)Nc2cccc(C(=O)Nc3cc(C(=O)Nc4ccc(S(=O)(=O)O)c5cc(S(=O)(=O)O)cc(S(=O)(=O)O)c45)ccc3C)c2)c1,cytopathic effect / XTT,CEM + CEM-SS,EC50,,,RF,>50 µM
O=C(N[C@H]1c2ccccc2OC[C@H]1O)[C@H](Cc1cccnc1)C[C@H](O)CN1CCN(Cc2ccn(-c3cc(Cl)c(Cl)c(Cl)c3)c2)C[C@H]1C(=O)NCC(F)(F)F,p24,MT-4,EC95,,,NL4-3 WT,≤0.008 µM
COc1ccc(CN2CCC(N=C3C=C(Cc4cccc5ccccc45)NS(=O)(=O)N3)CC2)cc1,MTT,MT-4,EC50,RT-K103N Y181C,,RES056,>119 µM
COC(=O)N[C@H](C(=O)N[C@@H](Cc1ccccc1)[C@@H](O)CN(Cc1ccc(-c2ccccn2)cc1)NC(=O)[C@@H](NC(=O)OC)C(C)(C)C)C(C)(C)C,,PBMC,EC50,L10I K14R L33I M36I M46I F53I K55R I62V L63P A71V G73S V82A L90M I93L,"clinical isolate, multidrug-resistant",Clinical isolate,0.45 µM
CC(=O)c1ccc(CN2CCC(N=C3C=C(Cc4ccc(Cl)cc4Cl)NS(=O)(=O)N3)CC2)cc1,MTT,MT-4,EC50,RT-K103N Y181C,,RES056,>99.45 µM
Cc1cc(/C=C/c2ccccc2)cc(C)c1Oc1ccnc(Nc2ccc(C#N)cc2)n1,MTT,MT-4,EC50,Y181C,,IIIB,0.273 µM
CC[C@H](C)[C@H]1NC(=O)[C@@H](NC(=O)[C@@H](CC(C)C)N(C)S(=O)(=O)c2ccc(C)cc2)[C@@H](C)OC(=O)[C@H](Cc2ccc(OC)cc2)N(C)C(=O)[C@@H]2CCCN2C(=O)[C@H](CC(C)C)NC(=O)[C@H](C(C)C)OC(=O)C[C@@H]1O,luciferase,PBMC,EC50,,,NL4-3,0.021 µM
O=C(N[C@H]1c2ccccc2OC[C@H]1O)[C@H](Cc1cccnc1)C[C@H](O)CN1CCN(Cc2ccn(-c3ccc(F)c(F)c3F)c2)C[C@H]1C(=O)NCC(F)(F)F,p24,MT-4,EC95,,,NL4-3 WT,≤0.008 µM
CC[C@H](C)[C@H]1NC(=O)[C@@H](NC(=O)OC(C)(C)C)[C@@H](C)OC(=O)[C@H](Cc2ccc(OC)cc2)N(C)C(=O)[C@@H]2CCCN2C(=O)[C@H](CC(C)C)NC(=O)C(C)(C)NC(=O)C[C@@H]1O,luciferase,PBMC,EC50,,,NL4-3,59.17 µM
Cc1cn([C@H]2C[C@H](N=[N+]=[N-])[C@@H](CO)O2)c(=O)[nH]c1=O,cytopathic effect / MTT,MT-2,EC50,RT-Y181C,,N119 nevirapine-resistant (RT Y181C),0.12 µM
Cc1cc(C#Cc2cccc(N)c2)cc(C)c1Oc1ccnc(Nc2ccc(C#N)cc2)n1,MTT,MT-4,EC50,E138K,,IIIB,0.135 µM
COc1c(O)c(I)c2c(c1OC)-c1c(c(I)c(O)c(OC)c1OC)C[C@H](C)[C@H](C)C2,cytopathic effect / MTT,MT-4,EC50,,,IIIB,0.26 µM
CC(C)Nc1cccnc1N1CCN(C(=O)c2cc3cc(NS(C)(=O)=O)ccc3[nH]2)CC1,MTT,MT-4,EC50,RT-K103N Y181C,,RES056,>43.81 µM
CC(C)(C)NC(=O)[C@@H]1C[C@@H]2CCCC[C@@H]2CN1C[C@@H](O)[C@H](Cc1ccccc1)NC(=O)[C@H](CC(N)=O)NC(=O)c1ccc2ccccc2n1,,PBMC,EC50,L10I I15V K20R L24I M36I M46L I54V I62V L63P K70Q V82A L89M,multidrug-resistant,Clinical isolate,0.31 µM
Cc1ccccc1-n1ccc(CN2CCN(C[C@@H](O)C[C@@H](Cc3cccnc3)C(=O)N[C@H]3c4ccccc4OC[C@H]3O)[C@H](C(=O)NCC(F)(F)F)C2)c1,p24,MT-4,EC50,PR-L10I N37S R41K M46I I54V I62V L63P A71V V77I V82A L90M I93L,,Q-60C Clinical isolate,<0.031 µM
Cc1cc(C#Cc2cccc(N)c2)cc(C)c1Oc1ccnc(NC2CCN(c3cccc(C(N)=O)c3)CC2)n1,MTT,MT-4,EC50,Y188L,,IIIB,0.13 µM
CS(=O)(=O)c1ccc(CN2CCC(N=C3C=C(Cc4ccc(Cl)cc4Cl)NS(=O)(=O)N3)CC2)cc1,MTT,MT-4,EC50,RT-K103N Y181C,,RES056,>224 µM
Cc1cc(C#Cc2ccccc2)cc(C)c1Oc1ccnc(NC2CCN(Cc3ccc(S(N)(=O)=O)cc3)CC2)n1,MTT,MT-4,EC50,RES056,,IIIB,>0.766 µM
Cc1ccc(-n2ccc(CN3CCN(C[C@@H](O)C[C@@H](Cc4cccnc4)C(=O)N[C@H]4c5ccccc5OC[C@H]4O)[C@H](C(=O)NCC(F)(F)F)C3)c2)cc1,p24,MT-4,EC95,PR-L10I N37S R41K M46I I54V I62V L63P A71V V77I V82A L90M I93L,,Q-60C Clinical isolate,≤0.008 µM
CCCc1cc(=O)oc2c3c(c4c(c12)OC(C)(C)C=C4)O[C@@H](C)[C@H](C)[C@@H]3O,RT activity,PBMC,EC50,,,CLADE D,0.2 µM
O=S1(=O)NC(Cc2ccc(Cl)cc2Cl)=CC(=NC2CCN(Cc3ccc(F)cc3)CC2)N1,MTT,MT-4,EC50,RT-K103N Y181C,,RES056,>103 µM
CC(C)CN(C[C@@H](O)[C@H](Cc1ccccc1)NC(=O)O[C@H]1CCOC1)S(=O)(=O)c1ccc(N)cc1,,PBMC,EC50,L10I K14R L33I M36I M46I F53I K55R I62V L63P A71V G73S V82A L90M I93L,"clinical isolate, multidrug-resistant",Clinical isolate,0.49 µM
Cc1cn([C@H]2C[C@H](N=[N+]=[N-])[C@@H](CO)O2)c(=O)[nH]c1=O,XTT,CEM + CEM-SS,EC50,RT-Y181C,,E BPTU-resistant (RT Y181C),0.03 µM
Cc1cn([C@H]2C[C@H](F)[C@@H](CO)O2)c(=O)[nH]c1=O,p24 / ELISA,MT-4,EC50,,,121-2(PRE-AZT),0.007 µM

Repeating the final 3 entries:

| SMILES | read by | cell line | endpoint | changes | conditions | strain | value |
|---|---|---|---|---|---|---|---|
| CC(C)CN(C[C@@H](O)[C@H](Cc1ccccc1)NC(=O)O[C@H]1CCOC1)S(=O)(=O)c1ccc(N)cc1 |  | PBMC | EC50 | L10I K14R L33I M36I M46I F53I K55R I62V L63P A71V G73S V82A L90M I93L | clinical isolate, multidrug-resistant | Clinical isolate | 0.49 µM |
| Cc1cn([C@H]2C[C@H](N=[N+]=[N-])[C@@H](CO)O2)c(=O)[nH]c1=O | XTT | CEM + CEM-SS | EC50 | RT-Y181C |  | E BPTU-resistant (RT Y181C) | 0.03 µM |
| Cc1cn([C@H]2C[C@H](F)[C@@H](CO)O2)c(=O)[nH]c1=O | p24 / ELISA | MT-4 | EC50 |  |  | 121-2(PRE-AZT) | 0.007 µM |

Two numbers with a dash give a range or band. An empty or dashed field is not shown. ECn is the concentration giving n% inhibition of infection, replication or growth.